In the supplement of paper PMC11923942 one finds GC retention time and collision cross section data, which are given here for one molecule.

Each structure is given as a SMILES string.

Data set [1] can be described thus: GC retention time (DB-5MS, GC-APCI); higher = later elution. The method, then:
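Standards of hydrophobic organic contaminants were analysed by GC-APCI (positive mode, dry or wet source conditions) coupled to cyclic ion mobility-QTOF MS. CCS was measured for the base ion (sometimes a fragment ion) in N2 drift gas (one-pass mode, calibrated with a Waters 22-compound mix). 5 mL/min).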

Data set [2] can be described thus: collision cross section (N2, base ion); higher = larger ion cross section. As for the experimental part: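 Standards of hydrophobic organic contaminants were analysed by GC-APCI (positive mode, dry or wet source conditions) coupled to cyclic ion mobility-QTOF MS. CCS was measured for the base ion (sometimes a fragment ion) in N2 drift gas (one-pass mode, calibrated with a Waters 22-compound mix).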

As for `CCCCOP(=O)(OCCCC)OCCCC` [Tributyl phosphate] (APCI source condition: Wet, base ion: [M+H]+), the GC retention time in data set [1] is 13.8 min. The molecule also registered a collision cross section in data set [2] of 167.02 Å².
